A mixed list of measured activities; the numbers were collected in NIAID ChemDB.

All rows: whole-cell or culture tests

ECn: concentration that inhibits the pathogen or its effect by n%. MIC50, MIC90 and the like: level of inhibition, or share of isolates inhibited. Percent inhibition refers to the dose given; in toxicity tests it is the harm to the cells. Conditions beyond the fields shown may differ between rows. Blank or dashed fields: not listed here.

SMILES	species	strain	cells	read by	read-out	dose	value
Cc1cn([C@@H]2O[C@H](CO)[C@@H](O)[C@@H]2O)c(=O)[nH]c1=O	Varicella zoster virus	HIRAI	HELF	plaque count	inhibition	1 µg/mL	100%
CCC(CC)[C@H](NC(C)=O)[C@@H]1[C@H](O)[C@@H](C(=O)O)C[C@H]1N=C(N)N	Influenza A virus	Influenza A/Shandong/09/93 (H3N2)	MDCK	visual reading	EC50	-	0.03 µM
C=Cc1cn([C@@H]2O[C@H](CO)[C@@H](O)[C@@H]2O)c(=O)[nH]c1=O	Varicella zoster virus	OKA	HELF	plaque count	inhibition	0.1 µg/mL	18%
CCOC(=O)c1c(C)nc(NCCCCNc2ccnc3cc(Cl)ccc23)nc1-c1ccccc1[N+](=O)[O-]	Cryptococcus neoformans	96806	-	-	MIC99	-	45.3 µg/mL
Nc1ccc(S(=O)(=O)O)cc1	Herpes simplex virus	-	Human amnion AV3 cells	cytopathic effect	inhibition	10 µg/mL	10%
CCOC(=O)/C=C/[C@H](C[C@@H]1CCNC1=O)NC(=O)[C@@H](CC(=O)[C@@H](NC(=O)c1cc(C)on1)C(C)C)Cc1ccc(F)cc1	Rhinovirus	Isolate 4	OHIO HELA-I	cytopathic effect / visual reading	EC50	-	0.01 µg/mL
C=CCc1ccc(OC)c(OC)c1	Candida albicans	2781	-	turbidity	MIC90	-	345 µg/mL
Oc1ccccc1C=Nc1ccccc1O	Cryptococcus neoformans	F-10	-	-	MIC99	-	4 µg/mL
O=c1[nH]c(=O)n([C@H]2C[C@H](O)[C@@H](CO)O2)cc1/C=C/Br	Varicella zoster virus	Kawaguchi	HELF	plaque count	inhibition	0.1 µg/mL	100%
Oc1cccc(C=Nc2ccccc2O)c1	Cryptococcus neoformans	5396	-	-	MIC99	-	5.7 µg/mL
O=S(=O)([O-])c1ccc(O)c2ccccc12	Herpes simplex virus	-	Human conjunctiva cells	cytopathic effect	inhibition	50 µg/mL	0%
Nc1nc(=O)n([C@@H]2O[C@H](CO)[C@@H](O)[C@@H]2F)cc1I	Varicella zoster virus	KANNO	HELF	plaque count	inhibition	0.01 µg/mL	67%
Oc1ccccc1N=Cc1ccc2c(c1)OCO2	Cryptococcus neoformans	5396	-	-	MIC99	-	5.7 µg/mL
O=S(=O)([O-])c1ccccc1S(=O)(=O)[O-]	Herpes simplex virus	-	Human amnion AV3 cells	cytopathic effect	inhibition	5 µg/mL	0%
CCO/N=C/c1ccc(OCCC2CCN(c3ccc(Cl)nn3)CC2)cc1	Rhinovirus	1857-CV51 (ICAM-1 receptor group 67)	KB	neutral red	EC50	-	0.013 µM
Nc1ccc2cc(S(=O)(=O)O)cc(S(=O)(=O)O)c2c1	Herpes simplex virus	-	Human amnion AV3 cells	cytopathic effect	inhibition	50 µg/mL	0%
Nc1nc2c(ncn2COCCO)c(=O)[nH]1	Varicella zoster virus	Kawaguchi	HELF	plaque count	inhibition	0.1 µg/mL	4%
COc1cc(-c2ccc(N=Nc3ccc4c(S(=O)(=O)O)cc(S(=O)(=O)O)c(N)c4c3O)c(OC)c2)ccc1N=Nc1ccc2c(S(=O)(=O)O)cc(S(=O)(=O)O)c(N)c2c1O	Herpes simplex virus	-	Human conjunctiva cells	cytopathic effect	inhibition	50 µg/mL	100%
Cc1nc(NCCCCNc2ccnc3cc(Cl)ccc23)nc(-c2ccccc2)c1C(=O)OC(C)C	Cryptococcus neoformans	ATCC 28957	-	-	MIC99	-	1.4 µg/mL
NCS(=O)(=O)O	Adenovirus	TYPE 3	Human embryonic lung cells	cytopathic effect	inhibition	10 µg/mL	0%
Cc1nc(NCCCCNc2ccnc3cc(Cl)ccc23)nc(-c2ccccc2[N+](=O)[O-])c1C(=O)OC(C)C	Cryptococcus gattii	L24/01	-	-	MIC99	-	8 µg/mL

The last 3 rows once more:

{"SMILES": "Cc1nc(NCCCCNc2ccnc3cc(Cl)ccc23)nc(-c2ccccc2)c1C(=O)OC(C)C", "species": "Cryptococcus neoformans", "strain": "ATCC 28957", "read-out": "MIC99", "value": "1.4 µg/mL"}
{"SMILES": "NCS(=O)(=O)O", "species": "Adenovirus", "strain": "TYPE 3", "cells": "Human embryonic lung cells", "read by": "cytopathic effect", "read-out": "inhibition", "dose": "10 µg/mL", "value": "0%"}
{"SMILES": "Cc1nc(NCCCCNc2ccnc3cc(Cl)ccc23)nc(-c2ccccc2[N+](=O)[O-])c1C(=O)OC(C)C", "species": "Cryptococcus gattii", "strain": "L24/01", "read-out": "MIC99", "value": "8 µg/mL"}